# Share of PSTVd loop 6 variants by leaf site

Values reported by Wu et al. 2024 (doi:10.1371/journal.ppat.1012142).

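Three N. benthamiana plants were inoculated with the whole mutant pool. Progeny were sequenced from the inoculated region (day 5), the margin of the inoculated leaf (day 10) and systemic leaves (day 12).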

PSTVd intermediate strain, loop 6: wild type UGACCGCGAG, pool pattern UNNNCGNNNG; upper and lower strand joined, each 5' to 3', the first 5 letters being the upper strand, closing pairs included.

Numbers give reads per thousand; 0 = not seen among the reads, higher = more abundant.
Each site shows the three plants.
"Pool" is the share in the plasmid pool used as inoculum, on the same scale.
The inoculated region was read from the minus strand, the other sites from the plus strand.
Samples held 36,220 to 57,551 reads, so the smallest values rest on one or two reads.
Sequences that differ at fixed positions probably stem from PCR or sequencing errors, and defective variants can be carried along by functional ones.
For reference, wild type rose from 20.7 per thousand in the pool to 195, 198, 203 (inoculated region), 629, 591, 734 (leaf margin) and 942, 870, 868 (systemic leaves).

{"sequence": "UUCCCGCCGG", "pool": "0.209", "inoculated region": "0.0869 0.0539 0.111", "leaf margin": "0 0 0", "systemic leaves": "0 0 0"}
{"sequence": "UUCCCGCCUG", "pool": "0.275", "inoculated region": "0.191 0.0898 0.0369", "leaf margin": "0.0552 0.303 0", "systemic leaves": "0 0.0202 0.0205"}
{"sequence": "UUCCCGCGAG", "pool": "0.196", "inoculated region": "0.243 0.251 0.295", "leaf margin": "0.773 0.757 0.0232", "systemic leaves": "0 0.0202 0.0820"}
{"sequence": "UUCCCGCGCG", "pool": "0.235", "inoculated region": "0.156 0.0719 0.0738", "leaf margin": "0.0276 0.0252 0", "systemic leaves": "0 0 0"}
{"sequence": "UUCCCGCGGG", "pool": "0.314", "inoculated region": "0.0869 0.0539 0.111", "leaf margin": "0 0 0.0232", "systemic leaves": "0 0 0"}
{"sequence": "UUCCCGCGUG", "pool": "0.144", "inoculated region": "0.104 0.0719 0.111", "leaf margin": "0 0.101 0.0232", "systemic leaves": "0 0 0.0205"}
{"sequence": "UUCCCGCUAG", "pool": "0.118", "inoculated region": "0.0869 0.144 0.111", "leaf margin": "0.0552 0 0", "systemic leaves": "0 0 0"}
{"sequence": "UUCCCGCUCG", "pool": "0.183", "inoculated region": "0.139 0.126 0.111", "leaf margin": "0.0276 0 0.0232", "systemic leaves": "0 0 0"}
{"sequence": "UUCCCGCUGG", "pool": "0.209", "inoculated region": "0.104 0.0359 0.0369", "leaf margin": "0 0 0", "systemic leaves": "0 0 0"}
{"sequence": "UUCCCGCUUG", "pool": "0.275", "inoculated region": "0.104 0.0898 0.0553", "leaf margin": "0 0 0.0232", "systemic leaves": "0 0 0"}
{"sequence": "UUCCCGGAAG", "pool": "0.144", "inoculated region": "0.0869 0.0719 0.0922", "leaf margin": "0 0 0.0464", "systemic leaves": "0 0 0"}
{"sequence": "UUCCCGGACG", "pool": "0.144", "inoculated region": "0.0869 0.126 0.0553", "leaf margin": "0 0 0", "systemic leaves": "0 0 0"}
{"sequence": "UUCCCGGAGG", "pool": "0.170", "inoculated region": "0.0869 0.0719 0.0369", "leaf margin": "0.0276 0 0", "systemic leaves": "0 0 0"}
{"sequence": "UUCCCGGAUG", "pool": "0.314", "inoculated region": "0.0348 0.0898 0.148", "leaf margin": "0 0 0", "systemic leaves": "0 0 0"}
{"sequence": "UUCCCGGCAG", "pool": "0.157", "inoculated region": "0.156 0.108 0.0553", "leaf margin": "0 0 0", "systemic leaves": "0 0 0"}
{"sequence": "UUCCCGGCCG", "pool": "0.222", "inoculated region": "0.156 0.0719 0.111", "leaf margin": "0 0 0", "systemic leaves": "0 0 0"}
{"sequence": "UUCCCGGCGG", "pool": "0.157", "inoculated region": "0.0869 0.0898 0.0922", "leaf margin": "0.0276 0 0.0232", "systemic leaves": "0 0 0"}
{"sequence": "UUCCCGGCUG", "pool": "0.105", "inoculated region": "0.0869 0.0180 0.0369", "leaf margin": "0 0 0", "systemic leaves": "0 0 0"}
{"sequence": "UUCCCGGGAG", "pool": "0.235", "inoculated region": "0.122 0.144 0.221", "leaf margin": "0.0552 0 0.0232", "systemic leaves": "0 0 0"}
{"sequence": "UUCCCGGGCG", "pool": "0.170", "inoculated region": "0.156 0.108 0.0184", "leaf margin": "0.0276 0 0.0232", "systemic leaves": "0 0 0"}
{"sequence": "UUCCCGGGGG", "pool": "0.170", "inoculated region": "0.0521 0.0359 0.0553", "leaf margin": "0 0 0.0232", "systemic leaves": "0 0 0"}
{"sequence": "UUCCCGGGUG", "pool": "0.170", "inoculated region": "0.0869 0.0539 0.0922", "leaf margin": "0 0 0", "systemic leaves": "0 0 0"}
{"sequence": "UUCCCGGUAG", "pool": "0.353", "inoculated region": "0.0869 0.0898 0.0922", "leaf margin": "0.0276 0 0.0232", "systemic leaves": "0 0 0"}
{"sequence": "UUCCCGGUCG", "pool": "0.209", "inoculated region": "0.104 0.0898 0.0369", "leaf margin": "0 0 0", "systemic leaves": "0 0 0"}